{"source": "PubChem BioAssay AID624099 (ICCB-Longwood, 2012)", "purpose": "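Knock-downs relieving repression by E2 of an HPV18 LCR luciferase reporter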 (primary screen)", "cell system": "human C33A cervical carcinoma cells (HPV-negative) stably expressing BPV1 E2 and an HPV18 LCR luciferase reporter", "reagents": "siRNA pool against human genes, 40 nM", "duration": "72 h", "measurement": "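HPV18 LCR reporter light per well, converted to plate-wise z-scores that exclude control wells, and averaged over triplicate plates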", "scale": "mean z-score and z-score: higher = stronger reporter signal, weaker E2 silencing", "active means": "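Mean z ≥ 2 together with z ≥ 2 in two or more of the three replicates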", "note": "In all, the deposit lists about 21,000 reagents; shown is a random part of them. Over the whole deposit, 497 (2.4%) are marked active. 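Higher z means weaker E2 silencing; only reporter increases were scored, and knock-downs that hurt cell survival may mask genuine repressor factors.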 A number with no mark means an inactive call. Reagent sequences are not shown."}
{"target": "LRRCC1", "PubChem SID": "SID134326401", "mean z-score": "2.24 (active)", "z-score, replicate A": 2.16, "z-score, replicate B": 2.39, "z-score, replicate C": 2.18}
{"target": "EDNRA", "PubChem SID": "SID134310931", "mean z-score": 0.31, "z-score, replicate A": 0.24, "z-score, replicate B": 0.5, "z-score, replicate C": 0.21}
{"target": "FMNL3", "PubChem SID": "SID134322832", "mean z-score": 0.51, "z-score, replicate A": 0.04, "z-score, replicate B": 0.84, "z-score, replicate C": 0.64}
{"target": "CRYGC", "PubChem SID": "SID134317377", "mean z-score": -0.91, "z-score, replicate A": -0.77, "z-score, replicate B": -1.02, "z-score, replicate C": -0.94}
{"target": "IER2", "PubChem SID": "SID134323643", "mean z-score": -1.3, "z-score, replicate A": -1.48, "z-score, replicate B": -1.15, "z-score, replicate C": -1.28}
{"target": "GTF2B", "PubChem SID": "SID134317207", "mean z-score": 0.75, "z-score, replicate A": 0.53, "z-score, replicate B": 0.36, "z-score, replicate C": 1.36}
{"target": "NEGR1", "PubChem SID": "SID134322209", "mean z-score": -0.09, "z-score, replicate A": -0.24, "z-score, replicate B": 0.06, "z-score, replicate C": -0.09}
{"target": "FAM81A", "PubChem SID": "SID134320382", "mean z-score": 0.35, "z-score, replicate A": 0.06, "z-score, replicate B": 0.19, "z-score, replicate C": 0.8}

Copied from the listing for reference:
{"target": "IER2", "PubChem SID": "SID134323643", "mean z-score": -1.3, "z-score, replicate A": -1.48, "z-score, replicate B": -1.15, "z-score, replicate C": -1.28}
{"target": "GTF2B", "PubChem SID": "SID134317207", "mean z-score": 0.75, "z-score, replicate A": 0.53, "z-score, replicate B": 0.36, "z-score, replicate C": 1.36}
{"target": "NEGR1", "PubChem SID": "SID134322209", "mean z-score": -0.09, "z-score, replicate A": -0.24, "z-score, replicate B": 0.06, "z-score, replicate C": -0.09}

The listing continues:
{"target": "VDR", "PubChem SID": "SID134309899", "mean z-score": 0.74, "z-score, replicate A": 0.65, "z-score, replicate B": 0.74, "z-score, replicate C": 0.83}
{"target": "PMF1", "PubChem SID": "SID134323437", "mean z-score": -1.12, "z-score, replicate A": -1.44, "z-score, replicate B": -0.97, "z-score, replicate C": -0.94}
{"target": "KLHL3", "PubChem SID": "SID134315296", "mean z-score": 0.6, "z-score, replicate A": 0.57, "z-score, replicate B": 0.7, "z-score, replicate C": 0.54}
{"target": "MROH5", "PubChem SID": "SID134329564", "mean z-score": 0.95, "z-score, replicate A": 0.65, "z-score, replicate B": 1.45, "z-score, replicate C": 0.74}
{"target": "GPN1", "PubChem SID": "SID134325060", "mean z-score": "3.63 (active)", "z-score, replicate A": 3.3, "z-score, replicate B": 3.46, "z-score, replicate C": 4.13}
{"target": "FLYWCH2", "PubChem SID": "SID134319638", "mean z-score": -1.73, "z-score, replicate A": -2.14, "z-score, replicate B": -1.25, "z-score, replicate C": -1.79}
{"target": "TPH1", "PubChem SID": "SID134314758", "mean z-score": 0.72, "z-score, replicate A": 0.87, "z-score, replicate B": 0.6, "z-score, replicate C": 0.71}
{"target": "TBC1D20", "PubChem SID": "SID134319994", "mean z-score": -1.35, "z-score, replicate A": -1.23, "z-score, replicate B": -1.47, "z-score, replicate C": -1.33}
{"target": "LOC255519 (retired record)", "PubChem SID": "SID134325444", "mean z-score": -0.12, "z-score, replicate A": -0.06, "z-score, replicate B": -0.05, "z-score, replicate C": -0.25}
{"target": "CELF4", "PubChem SID": "SID134318028", "mean z-score": 0.71, "z-score, replicate A": 0.83, "z-score, replicate B": 0.48, "z-score, replicate C": 0.82}
{"target": "ERICH6B", "PubChem SID": "SID134322799", "mean z-score": -0.25, "z-score, replicate A": 0.07, "z-score, replicate B": -0.19, "z-score, replicate C": -0.63}
{"target": "SLC5A8", "PubChem SID": "SID134312642", "mean z-score": -0.69, "z-score, replicate A": -0.79, "z-score, replicate B": -0.45, "z-score, replicate C": -0.83}
{"target": "PSMD14", "PubChem SID": "SID134311446", "mean z-score": -2.8, "z-score, replicate A": -2.68, "z-score, replicate B": -2.55, "z-score, replicate C": -3.17}
